Measured values from several laboratories, pooled; numbers as filed in NIAID ChemDB.

Shared fields: whole-cell or culture tests; agent: Candida albicans; endpoint: MIC

Conditions beyond the fields shown may differ between rows.

{"SMILES": "Nc1[nH]c(=O)ncc1F", "strain": "315", "value": "0.03 µg/mL"}
{"SMILES": "Cc1c(Sc2ccccc2)[n+](=O)c2cc(Cl)ccc2n1[O-]", "strain": "Clinical isolate 14", "value": "15.6 µg/mL"}
{"SMILES": "c1ccc(-c2ccc(C(c3ccccc3)n3ccnc3)cc2)cc1", "value": "3.6 µg/mL"}
{"SMILES": "NCc1c(-c2c(-c3ccc(F)cc3)[nH]c3ccccc23)c(CN)c2nc3ccccc3n2c1N", "strain": "MTCC 227", "method": "broth dilution", "value": ">1000 µg/mL"}
{"SMILES": "Cc1ncc(-c2ccc(I)cc2C(=O)N[C@@H](Cc2ccccc2)C(=O)NCC(=O)N[C@@H](Cc2ccccc2)C(=O)O)[nH]1", "value": "12.5 µg/mL"}
{"SMILES": "NCc1c(-c2c(-c3ccc([N+](=O)[O-])cc3)[nH]c3ccccc23)c(CN)c2nc3ccccc3n2c1N", "strain": "MTCC 227", "method": "broth dilution", "value": "1000 µg/mL"}
{"SMILES": "CCCOC[N+](C)(C)Cc1cc(N=Nc2ccc(C)cc2)ccc1O", "value": "331 µM"}
{"SMILES": "Cc1csc(NC(=O)CSc2nnc(C(C)Oc3ccccc3)n2-c2ccccc2)n1", "strain": "Clinical isolates", "value": ">16 µg/mL"}
{"SMILES": "COc1cc(C2C=C(c3ccc4c(c3)OCO4)NC(SCC(=O)Nc3ccc(Cl)cc3)N2)cc(OC)c1OC", "strain": "DSM 70014", "value": "50 µg/mL"}
{"SMILES": "CCCCCCCCCCCOC[N+](C)(C)Cc1cc(N=Nc2ccc(Cl)cc2)ccc1O", "value": "490 µM"}
{"SMILES": "CCOc1cc2c(cc1F)n([O-])c(C)c(Cl)[n+]2=O", "strain": "Clinical isolate 24", "value": "31.25 µg/mL"}
{"SMILES": "COC(=O)[C@@H](Cc1ccccc1)NC(=O)CNC(=O)[C@H](Cc1ccccc1)NC(=O)c1ccccc1-c1cnc(C)[nH]1", "value": "12.5 µg/mL"}
{"SMILES": "CCOc1cc2c(cc1F)n([O-])c(C)c(S(=O)(=O)c1ccccc1)[n+]2=O", "strain": "Clinical isolate 4", "value": "15.6 µg/mL"}
{"SMILES": "CC(C)C(=N)CCC[C@H]1CO[C@@](Cn2ccnc2)(c2ccc(F)cc2F)C1", "strain": "A.10231", "value": ">100 µg/mL"}
{"SMILES": "Cc1ccc2c(c1)nc1c(CN)c(-c3c(-c4ccc(C#N)cc4)[nH]c4ccccc34)c(CN)c(N)n12", "strain": "MTCC 227", "method": "broth dilution", "value": ">1000 µg/mL"}
{"SMILES": "CCCCCCCCCCOC[N+](C)(C)Cc1cc(N=Nc2ccc(C)cc2)ccc1O", "value": "1051 µM"}
{"SMILES": "CC(C)C(=O)CCC[C@H]1CO[C@@](Cn2ccnc2)(c2ccc(F)cc2F)C1", "strain": "A.10231", "value": "25 µg/mL"}
{"SMILES": "NCc1c(-c2c(-c3ccccc3)[nH]c3ccccc23)c(CN)c2nc3ccccc3n2c1N", "strain": "MTCC 227", "method": "broth dilution", "value": "500 µg/mL"}
{"SMILES": "COC(=O)[C@H](Cc1cc2ccccc2[nH]1)OC(=O)[C@H](C)NC(=O)[C@H](Cc1cc2ccccc2[nH]1)NC(=O)COc1cc(=O)oc2ccccc12", "value": "6.25 µg/mL"}
{"SMILES": "CC(Oc1ccccc1)c1n[nH]c(=S)n1-c1ccccc1", "strain": "Clinical isolates", "value": "16 µg/mL"}
{"SMILES": "CC(C)C(=O)CCC[C@H]1CO[C@@](Cn2cccc2)(c2ccc(F)cc2F)C1", "strain": "IFO. 1385", "value": ">100 µg/mL"}
{"SMILES": "COc1ccc(/C=c2\\sc3n(c2=O)C(c2cc(OC)c(OC)c(OC)c2)C=C(c2ccc(OC)c(OC)c2)N=3)cc1OC", "strain": "DSM 70014", "value": "25 µg/mL"}
{"SMILES": "COc1cc(O)c2c(c1)C(=O)c1c(cc3c(c1O)-c1c(cc(C)c(C(=O)N[C@H](CO)C(=O)O)c1O)[C@H](OC1OC(C)C(N)C(OC4OCC(O)C(O)C4O)C1O)[C@H]3O)C2=O", "strain": "A9540", "value": "6.3 µg/mL"}
{"SMILES": "O=[n+]1c(Sc2ccccc2)c(CBr)n([O-])c2ccccc21", "strain": "Clinical isolate 18", "value": "15.6 µg/mL"}
{"SMILES": "CCC(C)CC(C)CCCCCCCCC(=O)N[C@H]1C[C@@H](O)[C@@H](OCCN)NC(=O)[C@@H]2[C@@H](O)CCN2C(=O)[C@H]([C@@H](O)CCN)NC(=O)[C@H]([C@H](O)[C@@H](O)c2ccc(O)cc2)NC(=O)[C@@H]2C[C@@H](O)CN2C(=O)[C@H]([C@H](C)O)NC1=O", "strain": "ATCC 24433", "value": "≤0.007 µg/mL"}
{"SMILES": "Cc1ccc(OC(C)c2nnc(SCC(=O)Nc3nccs3)n2-c2ccccc2)cc1", "strain": "NRRL Y-27077", "value": "16 µg/mL"}
{"SMILES": "COc1ccc(NC(=O)CSC2NC(c3ccc4c(c3)OCO4)=CC(c3cc(OC)c(OC)c(OC)c3)N2)cc1", "strain": "DSM 70014", "value": "100 µg/mL"}
{"SMILES": "CC(C)C(=N)CCC=C1CO[C@@](Cn2ccnc2)(c2ccc(F)cc2F)C1", "strain": "B02630", "value": ">100 µg/mL"}
{"SMILES": "COC(=O)CNC(=O)[C@@H](NC(=O)CNC(=O)c1cc(I)ccc1-c1cnc(C)[nH]1)C(C)C", "value": "6.25 µg/mL"}
{"SMILES": "CCCCOC[N+](C)(C)Cc1cc(N=Nc2ccc(C)cc2)ccc1O", "value": "319 µM"}
{"SMILES": "CC(Oc1ccc(Cl)cc1)c1n[nH]c(=S)n1-c1ccccc1", "strain": "Clinical isolates", "value": ">16 µg/mL"}
{"SMILES": "CC[C@H](C)[C@H](NC(=O)[C@H](Cc1cnc[nH]1)NC(=O)COc1cc(=O)oc2ccccc12)C(=O)OC", "value": "6.25 µg/mL"}
{"SMILES": "COc1ccc(C2=CC(c3cc(OC)c(OC)c(OC)c3)NC(=O)N2)cc1OC", "strain": "DSM 70014", "value": "12.5 µg/mL"}
{"SMILES": "COC(=O)[C@H](Cc1ccc(O)cc1)NC(=O)COc1cc(=O)oc2ccccc12", "value": "12.5 µg/mL"}
{"SMILES": "CCCCCOC[N+](C)(C)Cc1cc(N=Nc2ccc(C)cc2)ccc1O", "value": "152 µM"}
{"SMILES": "COc1cc(C2CC(c3ccc4c(c3)OCO4)=NN2C=O)cc(OC)c1OC", "strain": "DSM 70014", "value": "12.5 µg/mL"}

The last 3 rows once more:

{"SMILES": "COC(=O)[C@H](Cc1ccc(O)cc1)NC(=O)COc1cc(=O)oc2ccccc12", "value": "12.5 µg/mL"}
{"SMILES": "CCCCCOC[N+](C)(C)Cc1cc(N=Nc2ccc(C)cc2)ccc1O", "value": "152 µM"}
{"SMILES": "COc1cc(C2CC(c3ccc4c(c3)OCO4)=NN2C=O)cc(OC)c1OC", "strain": "DSM 70014", "value": "12.5 µg/mL"}